Source: ChEMBL document CHEMBL1145842, “A selective human H(4)-receptor agonist: (-)-2-cyano-1-methyl-3-[(2R,5R)-5- [1H-imidazol-4(5)-yl]tetrahydrofuran-2-y] methylguanidine” (J Med Chem, 2003)

The chains behind the UniProt entries cited, without tags or fusion partners. Where a name states a change or a piece, a line headed by the entry shows the natural chain unless it says otherwise.
UniProt Q9H3N8: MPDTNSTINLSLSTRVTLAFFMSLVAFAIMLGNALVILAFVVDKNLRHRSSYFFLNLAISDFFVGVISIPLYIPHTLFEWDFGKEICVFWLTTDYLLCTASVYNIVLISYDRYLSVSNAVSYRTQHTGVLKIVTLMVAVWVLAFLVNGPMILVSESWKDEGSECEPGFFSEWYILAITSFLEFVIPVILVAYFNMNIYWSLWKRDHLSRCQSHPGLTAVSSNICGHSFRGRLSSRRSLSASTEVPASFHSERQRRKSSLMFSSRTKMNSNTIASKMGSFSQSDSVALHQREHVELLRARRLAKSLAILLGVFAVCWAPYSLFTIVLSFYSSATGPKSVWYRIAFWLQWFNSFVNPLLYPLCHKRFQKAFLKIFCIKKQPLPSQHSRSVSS

Key:
Histamine H4 receptor [1] = biological target: T1, Histamine H4 receptor (Homo sapiens, UniProt Q9H3N8); assay: Inhibition of the forskolin-stimulated cAMP production in SK-N-MC cells expressing human Histamine H4 receptor; type: functional, cell-based
Histamine H4 receptor [2] = biological target: T1, Histamine H4 receptor; assay: Histamine H4 receptor competition binding using [3H]Na-methylhistamine

Structure (SMILES): C/N=C(\NC#N)NC[C@H]1CC[C@@H](c2c[nH]cn2)O1 (single isomer, unassigned)
- EC50 (Histamine H4 receptor [1]): 7.59 µM
- Ki (Histamine H4 receptor [2]): 8.13 µM
